Pooled drug test results. Numbers come from NIAID ChemDB, via PubChem.

Shared fields: tests on isolated targets; species: HIV-1; target: Reverse transcriptase

Two numbers with a dash give a range or band.

compound,read by,strain,mutations,measure,result
N#Cc1cc(Cl)cc(Oc2c(Br)ccc(Cc3nn(COC(=O)CCC(=O)O)c4nnccc34)c2F)c1,nucleotide incorporation / radiometric,,,IC50,0.0049 µM
CCN1c2ncc(CCOc3cccc4c3CS(=O)(=O)N4CC(=O)O)cc2-c2nccn2-c2c(C)ccnc21,nucleotide incorporation / radiometric,,,IC50,<0.05 µM
[B-][P@](=O)(OC[C@H]1O[C@@H](n2cc(C)c(=O)[nH]c2=O)C[C@@H]1N=[N+]=[N-])OP(=O)(O)OP(=O)(O)O,fluorescence,,,Ki,0.009 µM
Cc1nc2sc3c(c2c(=O)o1)CCC3,nucleotide incorporation / fluorescence,,,IC50,27.2 µM
c1csc(-c2nnc3c4ccccc4c(N4CCc5ccccc5C4)nn23)c1,RT activity / fluorescence,98US_MSC5016,,IC50,>100 µM
COc1ccccc1C(=O)Nc1sc2c(c1C(N)=O)CCCCC2,nucleotide incorporation / fluorescence,,,IC50,>100 µM
Cc1cc(C)cc(S(=O)(=O)c2c(C(=O)NC(C)C(N)=O)[nH]c3ccc(Cl)cc23)c1,RT activity,,NNRTI-resistant (RT L100I),IC50,0.199 µM
Nc1ccn([C@H]2CC[C@@H](COP(=O)(O)OP(=O)(O)OP(=O)(O)O)O2)c(=O)n1,nucleotide incorporation / radiometric,WT,,IC50,0.079 µM
COc1cccc(-c2nnc3c4ccccc4c(N4CCc5ccccc5C4)nn23)c1,RT activity / fluorescence,KER2008,,IC90,98.6 µM
CCOC(=O)/C=C\c1c(-c2cccs2)[nH]c2ccccc12,RT activity,,,IC50,0.00944 µM
NC(=O)c1[nH]c2ccc(Cl)cc2c1S(=O)(=O)c1ccccc1,nucleotide incorporation / radiometric,,RT-Y188L,IC50,1 µM
CS(=O)(=O)O.C[C@@H]1CN(c2cc3c(cc2F)c(=O)c(C(=O)O)cn3-c2ccc3ccccc3c2)C[C@H](C)N1,ELISA,,,IC50,<1 µg/mL
COC(=O)[C@H](Cc1c[nH]c2ccccc12)NP(=O)(OCCC#N)OC[C@H]1O[C@@H](n2cc(C)c(=O)[nH]c2=O)C[C@@H]1N=[N+]=[N-],,,,IC50,>100 µM
CC(=O)/C=C/c1c(-c2cccs2)[nH]c2ccccc12,RT activity,,,IC50,0.00455 µM
Fc1ccc2c(c1)CN(c1nn3c(C4CC4)nnc3c3ccccc13)CC2,RT activity / fluorescence,98US_MSC5016,,IC50,0.64 µM
CS(=O)(=O)O.O=C(O)c1cn(-c2cccc3ccccc23)c2cc(N3CCNCC3)c(F)cc2c1=O,ELISA,,,IC50,>1 µg/mL
CCN1c2ncc(CCOc3cccc4c3CCNC4=O)cc2-c2ncc(C)n2-c2cccnc21,nucleotide incorporation / radiometric,,,IC50,<0.05 µM
Nc1cc2c(cc1F)CN(c1nn3c(C4CC4)nnc3c3ccccc13)CC2,RT activity / fluorescence,98US_MSC5016,,IC90,2.57 µM
Cc1nc2c3c(sc2c(=O)o1)CCCCC3,nucleotide incorporation / fluorescence,,,IC50,22.6 µM
C[C@@H]1CN(c2nc3c(cc2F)c(=O)c(C(=O)O)cn3-c2cccc3ccccc23)C[C@H](C)N1,ELISA,,,IC50,>1 µg/mL
CCN1c2ncc(CCOc3cccc4c3CS(=O)(=O)N4)cc2-c2nccn2-c2c(C)ccnc21,nucleotide incorporation / radiometric,,,IC50,<0.05 µM
CS(=O)(=O)O.C[C@@H]1CN(c2nc3c(cc2F)c(=O)c(C(=O)O)cn3-c2ccc3ccccc3c2)C[C@H](C)N1,ELISA,,,IC50,<1 µg/mL
Cc1nc2ccccc2c(=O)o1,nucleotide incorporation / fluorescence,,,IC50,>100 µM
CCN1c2ncc(CCOc3cccc4c3CNC4=O)cc2-c2ncc(C)n2-c2cccnc21,nucleotide incorporation / radiometric,,,IC50,<0.05 µM
COC(=O)/C=C/c1c(-c2cccs2)[nH]c2ccccc12,RT activity,,,IC50,0.00293 µM
Nc1ncnc2c1ncn2[C@@H]1CC[C@H](COP(=O)(O)OP(=O)(O)OP(=O)(O)O)O1,,,,Ki,2 µM
CNc1ccccc1C(=O)O[C@H]1[C@@H](O)[C@H](n2cnc3c(N)ncnc32)O[C@@H]1COP(=O)(O)OP(=O)(O)OP(=O)(O)OP(=O)(O)OC[C@@H]1CC[C@H](n2cnc3c(=O)[nH]c(N)nc32)O1,nucleotide incorporation / radiometric,WT,,IC50,16 µM
CCN1c2ncc(CCOc3cccc4c3CS(=O)(=O)N4CC(=O)OC(C)(C)C)cc2-c2nccn2-c2c(C)ccnc21,nucleotide incorporation / radiometric,,RT-K103N Y181C,IC50,0.05–0.1 µM
O=c1oc(-c2ccccc2O)nc2sc3c(c12)CCCCC3,nucleotide incorporation / fluorescence,,,IC50,>100 µM
COC(=O)[C@H](Cc1ccccc1)NP(=O)(O)OC[C@H]1O[C@@H](n2cc(C)c(=O)[nH]c2=O)C[C@@H]1N=[N+]=[N-],,,,IC50,>100 µM
COC(=O)/C=C\c1c(-c2cccs2)[nH]c2ccccc12,RT activity,,,IC50,0.00409 µM
Nc1nc2c(ncn2[C@H]2CC[C@@H](COP(=O)(O)OP(=O)(O)OP(=O)(O)OP(=O)(O)OC[C@H]3O[C@@H](n4cnc5c(N)ncnc54)[C@H](O)[C@@H]3O)O2)c(=O)[nH]1,nucleotide incorporation / radiometric,WT,,IC50,6.8 µM
COc1ccccc1-c1nc2sc3c(c2c(=O)o1)CCCCC3,nucleotide incorporation / fluorescence,,,IC50,>100 µM

The first 2 rows once more:

compound | read by | strain | mutations | measure | result
N#Cc1cc(Cl)cc(Oc2c(Br)ccc(Cc3nn(COC(=O)CCC(=O)O)c4nnccc34)c2F)c1 | nucleotide incorporation / radiometric |  |  | IC50 | 0.0049 µM
CCN1c2ncc(CCOc3cccc4c3CS(=O)(=O)N4CC(=O)O)cc2-c2nccn2-c2c(C)ccnc21 | nucleotide incorporation / radiometric |  |  | IC50 | <0.05 µM

Conditions beyond the fields shown may differ between rows. Blank or dashed fields: not listed here. ICn: concentration for n% inhibition.